Results of unrelated studies side by side (data: NIAID ChemDB).

Common to all: tests in culture; agent: Candida albicans; read-out: MFC

Blank or dashed fields: not listed here. Lines come from different laboratories, so protocols vary.

smiles | strain | value
c1ccc(CO/N=C2\c3ccccc3OCC2n2cnnc2)cc1 | ATCC 10231 | >64 µg/mL
CC1(C)CC[C@]2(C(=O)O)CC[C@]3(C)C(=CC[C@@H]4[C@@]5(C)CC[C@H](OC6O[C@H](CO)[C@@H](O)[C@H](O)[C@H]6O)[C@@](C)(CO)[C@@H]5CC[C@]43C)[C@@H]2C1 | ATCC 90029 | >100 µg/mL
CCn1nc(-c2cc(C)on2)cc1C | - | >200 µM
C[C@@H]1O[C@@H](O[C@H]2[C@H](O[C@H]3CC[C@@]4(C)[C@@H](CC[C@]5(C)[C@@H]4CC=C4[C@@H]6CC(C)(C)CC[C@]6(C(=O)O)CC[C@]45C)[C@]3(C)CO)OC[C@H](O)[C@@H]2O)[C@H](O)[C@H](O)[C@H]1O | ATCC 90029 | 25 µg/mL
N=C(N)c1ccc2nc(-c3ccc(-c4nc5ccc(C(=N)N)cc5[nH]4)[nH]3)[nH]c2c1 | Isolate 2281 | 0.78 µg/mL
CCCCn1nc(-c2cc(C)on2)c(N=O)c1C | - | >200 µM
Clc1ccc(CO/N=C2/c3ccccc3OCC2n2cncn2)c(Cl)c1 | ATCC 10231 | 64 µg/mL
CCn1nc(-c2cc(C)on2)c(N=O)c1C | - | 66 µM
COC1CC2CCC(C)C(O)(O2)C(O)C(O)N2CCCCC2C(=O)OC(C(C)CC2CCC(O)C(OC)C2)CC(=O)C(C)/C=C(\C)C(O)C(OC)C(=O)C(C)CC(C)/C=C/C=C/C=C/1C | RBP1/RBP1 | >100 µg/mL
Clc1ccc(COC(Cn2ccnc2)c2ccc(Cl)cc2Cl)c(Cl)c1 | - | 7 µM
C[C@@H]1O[C@@H](O[C@H]2[C@H](O)[C@@H](O)C(OC3[C@H](O[C@H]4CC[C@@]5(C)[C@@H](CC[C@]6(C)[C@@H]5CC=C5[C@@H]7CC(C)(C)CC[C@]7(C(=O)O)CC[C@]56C)[C@]4(C)CO)OC[C@H](O)[C@@H]3O)O[C@@H]2CO)[C@H](O)[C@H](O)[C@H]1O | ATCC 90029 | 25 µg/mL
COC1CC2CCC(C)C(O)(O2)C(=O)C(=O)N2CCCCC2C(=O)OC(C(C)CC2CCC(O)C(OC)C2)CC(=O)C(C)/C=C(\C)C(O)[C@@](OC)(N(O)C(=O)OCC(C)C)C(=O)C(C)CC(C)/C=C/C=C/C=C/1C | WILD TYPE | >100 µg/mL
Clc1ccc2c(c1)OCC(n1cncn1)/C2=N\OCc1ccc(Cl)c(Cl)c1 | ATCC 10231 | 64 µg/mL
CC1(C)CC[C@]2(C(=O)O)CC[C@]3(C)C(=CC[C@@H]4[C@@]5(C)CC[C@H](O[C@@H]6OC[C@H](O)[C@H](O)C6O)[C@@](C)(CO)[C@@H]5CC[C@]43C)[C@@H]2C1 | ATCC 90029 | >100 µg/mL
CCn1nc(C)c(N)c1-c1cc(C)on1 | - | >200 µM
Clc1cccc(Cl)c1CO/N=C1/c2ccccc2OCC1n1cncn1 | ATCC 10231 | >64 µg/mL

Repeating the first 2 entries:

smiles	strain	value
c1ccc(CO/N=C2\c3ccccc3OCC2n2cnnc2)cc1	ATCC 10231	>64 µg/mL
CC1(C)CC[C@]2(C(=O)O)CC[C@]3(C)C(=CC[C@@H]4[C@@]5(C)CC[C@H](OC6O[C@H](CO)[C@@H](O)[C@H](O)[C@H]6O)[C@@](C)(CO)[C@@H]5CC[C@]43C)[C@@H]2C1	ATCC 90029	>100 µg/mL